A mixed list of measured activities; the numbers were collected in NIAID ChemDB.

Common to all: growth or infection tests; agent: HIV-1; cells: C8166; endpoint: EC50

a–b is a range or a potency band. ECn is the concentration giving n% inhibition of infection, replication or growth. Rows are shuffled and stem from different studies. Blank or dashed fields: not listed here.

smiles,strain,changes,read by,value
COc1cc2oc(=O)c3c(O)ccc(O)c3c2c(OC)c1OC,,,MTT,20.33 µM
Cc1c(Cc2cccc3ccccc23)nc(Sc2cccs2)[nH]c1=O,IIIB,,syncytia,43.3 µM
C=Cc1c(C)ccc2c1CCC1C(C)(C)[C@@H](O)CC[C@]21C,,,cytopathic effect,57.73 µM
C/C(=N\OCCOCn1cnc2c(=O)[nH]c(N)nc21)c1ccccc1,IIIB,,,>50 µM
CN(Cc1nc2ccccc2[nH]1)C1CCCc2cccnc21,IIIB,,syncytia,2.041 µM
CCN1C(=O)NC(=O)C(C(C)C)C1CC1CC(C)CC(C#N)C1=O,IIIB,,p24 / ELISA,0.00303 µM
C/C(=N\NC(=O)c1ccccc1)c1cn(S(=O)(=O)c2ccc(Cl)cc2)c2ccccc12,IIIB,,syncytia / visual reading,125 µg/mL
CCc1c(CC2CCCCC2)nc(SCc2ccccc2)[nH]c1=O,,,,0.5316 µM
C/C(=N\NC(=O)c1ccccc1)c1cn(S(=O)(=O)c2ccccc2)c2ccc(C#N)cc12,IIIB,,syncytia / visual reading,0.67 µg/mL
Cc1cc(C)cc(S(=O)(=O)c2c(C(=O)NC(C)C(N)=O)[nH]c3ccc(Cl)cc23)c1,EFV-resistant (RT K103R V179D P225H),,p24,<0.04 µM
COc1cc(OC)c2oc(=O)ccc2c1,IIIB,,ELISA,102.9 µM
NC(=O)CNC(=O)c1[nH]c2ccc(Cl)cc2c1S(=O)(=O)c1ccccc1,EFV-resistant (RT K103R V179D P225H),,p24,<2.7 µM
CCc1c(Cc2cccc3ccccc23)nc(Sc2cccs2)[nH]c1=O,IIIB,,syncytia,14.1 µM
COc1cc2oc3cccc(O)c3c(=O)c2c2c1OC(C)(C)C=C2,IIIB,,ELISA,183.4 µM
CN(Cc1nc2ccccc2[nH]1)Cc1ncccc1Br,IIIB,,syncytia,22.9 µM
CCc1c(CC2CCCCC2)nc(SCC(=O)c2ccc(OC)cc2)[nH]c1=O,,,,0.000217 µM
COc1ccc(S(=O)(=O)n2cc(/C=N/NC(=O)c3ccccc3)c3ccc(C)cc32)cc1,IIIB,,syncytia / visual reading,3.66 µg/mL
CCc1c(Cc2ccccc2)nc(SCC(=O)c2ccc(OC)cc2)[nH]c1=O,IIIB,,syncytia,0.048 µM
CCN1c2ncc(CCOc3ccc(-c4ccc(CCC(=O)O)cc4)cc3C)cc2C(=O)N(C)c2cccnc21,,RT-K103N Y181C,p24,0.01–0.05 µM
COc1ccc(C(=O)CSc2nc(CC3CCCCC3)c(C(C)C)c(=O)[nH]2)cc1,,,,0.000162 µM
Cc1cc(C)cc(S(=O)(=O)c2c(C(=O)NC(C)C(=O)NN)[nH]c3ccc(Cl)cc23)c1,IIIB,,p24,<0.07 µM
CC(C)c1c(Cc2ccccc2)nc(SCC(=O)c2ccco2)[nH]c1=O,IIIB,,syncytia,0.095 µM
C=C(C)[C@@H]1CC[C@@H]2[C@]3(CC[C@]4(C)[C@@H]([C@H](C)CC/C=C(/C)C(=O)O)CC[C@@]24C)C[C@]13CCC(=O)O,,,cytopathic effect,28.97 µg/mL
CCc1c(Cc2cccc3ccccc23)nc(SCC(=O)c2ccco2)[nH]c1=O,IIIB,,syncytia,1.43 µM
C=C1C(=O)O[C@H]2[C@@H]1[C@H](OC(=O)C(C)C)[C@@H]1[C@@](C)([C@@H](OC(C)=O)CC[C@]1(C)O)[C@H]2O,IIIB,,absorbance,8.56 µM
CC1(C)C=Cc2c(ccc3ccc(=O)oc23)O1,IIIB,,ELISA,25.5 µM
C/C(=C/CC[C@@H](C)[C@H]1CC[C@@]2(C)[C@@H]3CC[C@@H](C(C)(C)O)[C@@]4(CCC(=O)O)C[C@@]34CC[C@]12C)C(=O)O,,,cytopathic effect,0.52 µg/mL
CC(C)c1c(CC2CCCCC2)nc(SCC(=O)c2ccccc2O)[nH]c1=O,,,,0.00195 µM
CCN1c2ncc(CCOc3ccc(C(=O)Nc4cccc(CC(=O)O)c4)cc3C)cc2C(=O)N(C)c2cccnc21,,RT-K103N Y181C,p24,0.01–0.05 µM
O=C1C=C(c2ccc(O)cc2)OC2C=C(O)C=C(O)C12,IIIB,,ELISA,203.3 µM
COc1c(OC(C)=O)cc2c(c1O)-c1c(cc(O)c(OC)c1OC)C[C@@H](C)[C@@H](C)C2,,,cytopathic effect,3.24 µg/mL
C=C(C)C1Cc2cc3ccc(=O)oc3cc2O1,IIIB,,ELISA,145.8 µM
COc1cc(C[C@@H](C)[C@@H](C)Cc2cc(O)c(OC)c(OC)c2)cc(O)c1OC,IIIB,,syncytia,2.26 µg/mL
Cc1ccc(S(=O)(=O)n2cc(/C=N/NC(=O)c3ccccc3)c3ccc(C)cc32)cc1,IIIB,,syncytia / visual reading,8.25 µg/mL
CN(Cc1nc2ccccc2[nH]1)Cc1ncccc1CCC(=O)NCc1ccc(F)cc1,IIIB,,syncytia,3.936 µM
Cc1cn([C@H]2C[C@H](N=[N+]=[N-])[C@@H](CO)O2)c(=O)[nH]c1=O,,,MTT,0.0152 µM
C=C1C(=O)O[C@H]2[C@@H]1[C@H](OC(=O)C(C)C)[C@H]1[C@@](C)([C@@H](OC(C)=O)CC[C@]1(C)O)[C@H]2OC(C)=O,IIIB,,absorbance,1.58 µM
CCCCCCCCCCCCOP(=O)([O-])OCC[NH2+]C,,,antigen,>100 µM
Cc1cc(C)cc(S(=O)(=O)c2c(C(N)=O)[nH]c3ccc(Cl)cc23)c1,IIIB,,p24,<0.006 µM
CCN1c2ncc(CCOc3ccc(S(=O)(=O)c4ccncc4)cc3C)cc2C(=O)N(C)c2cccnc21,,RT-K103N Y181C,p24,<0.01 µM
Cc1ccc2c(/C=N/NC(=O)c3ccccc3)cn(S(=O)(=O)c3cccc([N+](=O)[O-])c3)c2c1,IIIB,,syncytia / visual reading,1.02 µg/mL
CCN1c2ncc(CCc3ccncc3)cc2C(=O)N(C)c2ccc(Cl)nc21,IIIB,,p24,0.009 µM
CN(Cc1ccccn1)Cc1ncccc1CCC#N,IIIB,,syncytia,5.571 µM
Cc1cc(C)cc(S(=O)(=O)c2c(C(=O)NCC(=O)NN)[nH]c3ccc(Cl)cc23)c1,EFV-resistant (RT K103R V179D P225H),,p24,<1 µM
CCCCCCCCCCCCCCCCCCOP(=O)([O-])OCC[NH2+]C,,,antigen,25 µM
CCOCn1c(Cc2ccccc2)c(C(C)C)c(=O)[nH]c1=O,RF,,p24,0.0024 µM
CCO[C@H]1c2cc(O)c(OC)c(OC)c2-c2c(cc(O)c(OC)c2OC)C[C@H](C)[C@@H]1C,,,cytopathic effect,3.47 µg/mL
CC(C)=NOCCOCn1cnc2c(=O)[nH]c(N)nc21,IIIB,,,>50 µM
Cc1cccnc1CN(CCCCN)Cc1nc2nccc(N3CCN(C)CC3)c2[nH]1,IIIB,,syncytia,0.005 µM
CCCCCCCCC(=O)N(CCCCCCCCCCC(=O)O)CC(O)C(O)C(O[C@@H]1O[C@H](CO)[C@H](O)[C@H](O)[C@H]1O)C(O)CO,LAI,,syncytia,>284 µM
CCN1c2nc(C(F)(F)F)ccc2NC(=O)c2cc(CCOc3cc[n+]([O-])c4ccccc34)cnc21,,RT-K103N Y181C,p24,0.0035 µM
CN(Cc1nc2ccccc2[nH]1)Cc1ncccc1CCC(=O)O,IIIB,,syncytia,>200 µM
CCc1c(CC2CCCCC2)nc(SCC(=O)c2ccccc2)[nH]c1=O,,,,0.000012 µM
C[C@@H]1C2[C@H](O)C[C@@]34C=C[C@@](C)(CCC3[C@@]23CC[C@@H]1OC3=O)C4,,,cytopathic effect,11.14 µM
CC1(C)C=Cc2c(cc(O)c3c2O[C@H](c2ccc(O)cc2)CC3=O)O1,IIIB,,ELISA,30.1 µM
Nc1nc2c(ncn2COCCON=C2CCCC2)c(=O)[nH]1,IIIB,,,>50 µM
Cc1cn([C@H]2C[C@H](N=[N+]=[N-])[C@@H](CO)O2)c(=O)[nH]c1=O,A17,,cytopathic effect,0.00422 µg/mL
CCN1c2ncc(CCOc3ccc(-c4ccc(C(=O)O)cc4)cc3)cc2C(=O)N(C)c2cccnc21,IIIB,,p24,<0.01 µM
COCCCn1c(=O)nc(-c2ccc(N3CCN(C)CC3)nc2)c2oc3ccc(-c4cnn(C)c4)cc3c21,,,p24 / ELISA,0.0015 µM
COc1cc2c(c(O)c1OC)-c1c(cc3c(c1O)OCO3)C[C@H](C)[C@H](C)C2,IIIB,,syncytia,5.57 µg/mL
CC1=C(O[C@H](CC(=O)O)c2ccccc2)C(=O)C(C)(C)C1=O,,,MTT,18.73 µM
CCN1c2ncc(CCOc3ccc(C(=O)NC(C)(C)C(=O)O)cc3C)cc2C(=O)N(C)c2cccnc21,IIIB,,p24,0.01–0.05 µM
CN(Cc1nc2ccccc2[nH]1)Cc1ncccc1CCC#N,IIIB,,syncytia,12.9 µM

The last 5 rows once more:

{"smiles": "COCCCn1c(=O)nc(-c2ccc(N3CCN(C)CC3)nc2)c2oc3ccc(-c4cnn(C)c4)cc3c21", "read by": "p24 / ELISA", "value": "0.0015 µM"}
{"smiles": "COc1cc2c(c(O)c1OC)-c1c(cc3c(c1O)OCO3)C[C@H](C)[C@H](C)C2", "strain": "IIIB", "read by": "syncytia", "value": "5.57 µg/mL"}
{"smiles": "CC1=C(O[C@H](CC(=O)O)c2ccccc2)C(=O)C(C)(C)C1=O", "read by": "MTT", "value": "18.73 µM"}
{"smiles": "CCN1c2ncc(CCOc3ccc(C(=O)NC(C)(C)C(=O)O)cc3C)cc2C(=O)N(C)c2cccnc21", "strain": "IIIB", "read by": "p24", "value": "0.01–0.05 µM"}
{"smiles": "CN(Cc1nc2ccccc2[nH]1)Cc1ncccc1CCC#N", "strain": "IIIB", "read by": "syncytia", "value": "12.9 µM"}